Sequence variants of PSTVd stem 3 after infection

Values reported by Wu et al. 2024 (doi:10.1371/journal.ppat.1012142).

PSTVd intermediate strain, stem 3: wild type GUGGUUCCGGAACCGC, pool pattern GUGGUUCCGNANNCNN; upper and lower strand joined, each 5' to 3', the first 8 letters being the upper strand.

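A pool of all variants was put on leaves of three Nicotiana benthamiana plants. Samples came from the inoculated region at 5 days, the leaf margin at 10 and upper systemic leaves at 12.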

Values are reads per thousand in the sample; higher means more abundant, 0 means not found.
Each value is the mean of three plants.
"Pool" is the share in the plasmid pool used as inoculum, on the same scale.
The inoculated region was read from the minus strand, the other sites from the plus strand.
For reference, wild type rose from 17.3 per thousand in the pool to 330, 345, 235 (inoculated region), 794, 766, 816 (leaf margin) and 830, 792, 869 (systemic leaves).
The authors trace changes outside the varied positions to PCR and sequencing errors or to mutation in the plant; presence does not show that a variant is infectious alone.
With 27,691-54,225 reads a sample, very low values are single reads.

GUGGUUCCGAACGCUA (pool 0.862) gave inoculated region 0.401; leaf margin 0.0453; systemic leaves 0.0516. GUGGUUCCGAAUGCCA (pool 0.846) read inoculated region 0.247; leaf margin 0; systemic leaves 0. With GUGGGUCCGAACACCG (pool 0.0308) the assay gave inoculated region 0; leaf margin 0; systemic leaves 0. With GUGGUUCCGAAUCCAG (pool 0.800) the assay gave inoculated region 0.762; leaf margin 0.156; systemic leaves 0. GUGGUUCCGCACCCAG (pool 0.677) read inoculated region 0.342; leaf margin 0; systemic leaves 0. GUGGUUCCGCAAGCCC (pool 0.862) read inoculated region 0.364; leaf margin 0.0120; systemic leaves 0.

With GUGGUUCCGUAGUCUG (pool 1.11) the assay gave inoculated region 1.31; leaf margin 0.0120; systemic leaves 0.0205. With GUGGUUCCGGAUACCC (pool 0.662) the assay gave inoculated region 0.395; leaf margin 0; systemic leaves 0. With GUGGUUCCGAAUACGC (pool 0.816) the assay gave inoculated region 0.406; leaf margin 0.0120; systemic leaves 0. With GUGGUUCCGAAGUCGG (pool 0.739) the assay gave inoculated region 0.785; leaf margin 0.477; systemic leaves 0. GUGGUUCCGGAAGCGC (pool 0.954) read inoculated region 10.8; leaf margin 20.3; systemic leaves 18.1. GUGGUUCCGGAAUCUG (pool 1.55) read inoculated region 0.495; leaf margin 0; systemic leaves 0.

With GUGGUUCCGAAAGCUC (pool 0.893) the assay gave inoculated region 0.292; leaf margin 0.0106; systemic leaves 0. GUGGUUCCGCAUUCAA (pool 1.71) read inoculated region 1.12; leaf margin 0.0335; systemic leaves 0.0435. For GUGGUUCCGGACACAU (pool 1.05) the result was inoculated region 0.690; leaf margin 0; systemic leaves 0. With GUGGUUCCGAACCCAA (pool 0.923) the assay gave inoculated region 0.733; leaf margin 0; systemic leaves 0. GUGGUUCCGAAAUCCC (pool 0.816) gave inoculated region 0.731; leaf margin 0.128; systemic leaves 0. For GUGGUUCCGUAGGCAU (pool 1.52) the result was inoculated region 1.55; leaf margin 0.942; systemic leaves 1.18.

GUGGUUCCGUACGCAC (pool 1.11) gave inoculated region 0.317; leaf margin 0.0226; systemic leaves 0. For GUGGGUCCGAAACCUA (pool 0.0154) the result was inoculated region 0; leaf margin 0; systemic leaves 0.

Extract of 2 entries:

sequence	pool	inoculated region	leaf margin	systemic leaves
GUGGUUCCGAACCCAA	0.923	0.733	0	0
GUGGGUCCGAAACCUA	0.0154	0	0	0